From patent EP1452605A1, “Method for determining antiviral activity” (Universiteit Utrecht Holding B.V., priority 2003, dated 2004)

Test system: HIV-1Ba-L
Assay: HIV-1 infection of PBMC, p24-core antigen ELISA
Assay type: cell-based
Details: ratio TC50/IC50, PBMC
Experimental: To correct for the input virus, an extra control consisting of medium containing the same amount of input virus as added to the cells was included in the experiment. The amount of p24 in this control was subsequently subtracted from the p24 values of the samples in order to obtain the exact amount of p24 produced by the cells. p24-core antigen quantification by ELISA After 2 or 7 days incubation, samples of the supernatants were collected, inactivated by addition of Empigen (Calbiochem, La Jolla, CA, USA) and by heat inactivation at 56°C for 30 min. p24-core antigen concentration was determined by an enzyme linked immunoabsorbent assay (ELISA) (AMPAK™, DAKO, Cambridgeshire, UK) as described previously ^18,19. The optical density values were converted into p24 concentration (ng/ml) with the use of a calibration curve made by serial dilutions of recombinant p24 protein (NIBSC, UK) that was submitted to the same treatment as the samples.
(§1) To correct for the input virus, an extra control consisting of medium containing the same amount of input virus as added to the cells was included in the experiment. The amount of p24 in this control was subsequently subtracted from the p24 values of the samples in order to obtain the exact amount of p24 produced by the cells.
(§2) After 7 days incubation, samples of the supernatants were collected, inactivated by addition of Empigen (Calbiochem, La Jolla, CA, USA) and by heat inactivation at 56°C for 30 min. p24-core antigen concentration was determined by an ELISA (AMPAK™, DAKO, Cambridgeshire, UK) as described previously ^39,40. The optical density values were converted into p24 concentration (ng/ml) with the use of a calibration curve made by serial dilutions of recombinant p24 protein (NIBSC, UK) that was submitted to the same treatment as the samples.
as §1
as §2, with “enzyme linked immunoabsorbent assay (ELISA)” for “ELISA”, “15,16.” for “^39,40.”

Structure (SMILES) | SI
CCCCC#CCSc1ccccc1OC(C)=O [APHS, o-(acetoxyphenyl)hept-2-ynyl sulfide] | 18
CCCCC#CCS(=O)(=O)c1ccccc1OC(C)=O [APHS-d1] | 86
CCCCCCCSc1ccccc1OC(C)=O [APHS-d2] | 41
CSc1ccccc1OC(C)=O [APHS-d4] | 2
CC(=O)Oc1ccccc1C(=O)O [aspirin, reference compound] | 17
CCCCCCCCSc1ccccc1OC(C)=O [compound 9] | 7
CCCCCCCSc1ccccc1OC(C)=O [compound 11] | 5
CCCCCCSc1ccccc1OC(C)=O [compound 18] | 48
CCCCCSc1ccccc1O [compound 19] | 159
